Reference: patent publication US20220152080A1 (priority 2019, published 2022)

Tested on: WSN/H1N1
Test: multi passaging resistance experiment, A549 cells infected with WSN/H1N1, plaque titration

Question: With O=C(NOCC1CC1)c1ccc(F)c(F)c1Nc1ccc(I)cc1Cl [CI-1040] as the compound, how does the “average titer compared to the DMSO control, round 5 to round 12” value (10 μM inhibitor, DMSO control = 100%) read?
Answer: Its value is 8.45%±3.41%.

Question: What about the “development of resistance on passaging with increasing concentrations” value (multi passaging, A549, WSN/H1N1 MOI 0.01) of the same compound?
Answer: The value was “high barrier towards development of resistance”.

Question: What about the “reduction of viral titers compared to the DMSO control, first round” value (round 1, 1 μM inhibitor, 24 h p.i., MOI 0.01) of the same compound?
Answer: Its value is 64.75%±0.32%.
